A mixed list of measured activities; the numbers were collected in NIAID ChemDB.

Shared fields: whole-cell or culture tests; agent: Varicella zoster virus; read by: plaque count; read-out: EC50

ECn: concentration that inhibits the pathogen or its effect by n%. Rows are shuffled and stem from different studies. Blank or dashed fields: not listed here.

compound	cells	strain	value
COC(=O)c1ccc2cc(-c3ccccc3)cn2c1	MRC-5	G-31	>40 µM
O=c1[nH]c(=O)n([C@H]2C[C@H](O)[C@@H](CO)O2)cc1I	HEF	Batson	0.44 µg/mL
CC1(C)[C@@H](CCO)C[C@H]1n1nnc2c(=O)[nH]c(N)nc21	HEL	(TK-)/YS/R	>50 µg/mL
OC[C@H]1O[C@@H](c2cc(I)c(F)cc2F)C[C@@H]1O	HEL	TK+/YS	>200 µM
CC1(C)[C@@H](CCO)C[C@H]1n1nnc2c(=O)[nH]cnc21	HEL	(TK-)07/1	>20 µg/mL
OC[C@H]1O[C@@H](c2ccc(F)cc2F)C[C@@H]1O	HEL	(TK-)/YS/R	>200 µM
Cc1ccccc1CSCc1cnc2c(Br)cc(Br)c(C)n12	HEL	OKA (TK+)	>5 µg/mL
Nc1ccn([C@@H]2O[C@H](CO)[C@@H](O)[C@@H]2O)c(=O)n1	HEL	YS-V10 H12	0.2 µg/mL
Cc1c(Br)cc(Br)c2ncc(CSCc3cccs3)n12	HEL	07/1 (TK-)	>2 µg/mL
OC[C@H]1O[C@H](c2cc(Br)c(F)cc2F)C[C@@H]1O	HEL	(TK-)07/1	>200 µM
COC(=O)c1cccn2cc(-c3ccccc3)cc12	MRC-5	G-31	>40 µM
O=c1[nH]c(=O)n([C@@H]2O[C@H](CO)[C@@H](O)[C@@H]2O)cc1/C=C/Br		Kawaguchi	0.00111 µg/mL
CC1(C)[C@@H](CCO)C[C@H]1n1cnc2c(=O)[nH]c(N)nc21	HEL	(TK+)/OKA	>50 µg/mL
O=c1[nH]c(=O)n([C@H]2C[C@H](O)[C@@H](CO)O2)cc1/C=C/I	HEF	Ohtomo	0.0031 µg/mL
Cc1cn([C@@H]2O[C@H](CO)[C@@H](O)[C@@H]2O)c(=O)[nH]c1=O		Kawaguchi acyclovir-resistant mutant A7	0.0119 µg/mL
Cc1c(Br)cc(Br)c2ncc(CSCc3ccco3)n12	HEL	YS (TK+)	11 µg/mL
CC1(C)[C@@H](CCO)C[C@H]1n1cnc2c(N)ncnc21	HEL	(TK-)07/1	>20 µg/mL
O=c1[nH]c(=O)n([C@H]2C[C@H](O)[C@@H](CO)O2)cc1/C=C/Br	HEF	KANNO	0.008 µg/mL
Cc1c(Br)cc(Br)c2ncc(CSCc3ccccc3)n12	HEL	YS (TK+)	>50 µg/mL
O=C(NCc1ccc(Cl)cc1)c1c[nH]c2ccc(CCCO)cc2c1=O		COH	0.2 µM
c1csc(-c2cc3ccccn3c2)c1	MRC-5	G-31	1 µM
Nc1cc([C@H]2C[C@H](O)[C@@H](CO)O2)c(F)cc1F	HEL	(TK+)/OKA	>200 µM
Cc1cccc(CSCc2cnc3c(Br)cc(Br)c(C)n23)c1	HEL	07/1 (TK-)	>20 µg/mL
CC(=O)c1c(-c2ccccc2)cc2ccccn12	MRC-5	G-31	>40 µM
Cc1c(Br)cc(Br)c2ncc(CSCCc3ccccc3)n12	HEL	YS (TK+)	3.3 µg/mL
O=C(O)CP(=O)(O)O	HEL	YS-V10 H12	7.1 µg/mL
Cn1cc(C(=O)NCc2ccc(Cl)cc2)c(=O)c2cc(CN3CCOCC3)ccc21	HFF	NA varicella isolate	0.1 µM
Cc1cc([C@H]2C[C@H](O)[C@@H](CO)O2)c(F)cc1F	HEL	(TK-)/YS/R	>200 µM

For reference, 2 entries again:

compound,cells,strain,value
O=c1[nH]c(=O)n([C@@H]2O[C@H](CO)[C@@H](O)[C@@H]2O)cc1/C=C/Br,,Kawaguchi,0.00111 µg/mL
Cc1cccc(CSCc2cnc3c(Br)cc(Br)c(C)n23)c1,HEL,07/1 (TK-),>20 µg/mL